Measured values from several laboratories, pooled; numbers as filed in NIAID ChemDB.

Shared fields: toxicity to cultured cells; read-out: CC50

CCn is the concentration with n% toxicity to the cells. Neighbouring rows are from separate reports. a–b is a range or a potency band. An empty or dashed field is not shown.

SMILES,cells,read by,value
Cn1cc2c3ccccc3nc-2c2ccc(Cl)cc21,3T3,MTT,2.263 µM
CCc1cc(-c2ccc(C)o2)n(-c2ccc3c(c2)nc(-c2cc(F)ccc2O)n3Cc2ccc(OC)c(O)c2)n1,12D7-MDR,MTT,>21 µM
Fc1cccc(Cn2c(-c3ccc(-n4cncn4)cc3)nc3c(F)cc(F)cc32)c1,Vero-C-1008,neutral red / absorbance,>50 µg/mL
O=c1ccn(-c2ccc(F)cc2)c2cc(-c3ccncc3)ccc12,HPB-ALL,luminescence,71.7 µM
Cc1cn([C@@H]2O[C@H](COC(c3ccccc3)(c3ccccc3)c3ccccc3)[C@H](O)[C@H]2N=[N+]=[N-])c(=O)[nH]c1=O,HL-60,-,>1000 µM
NC(=S)Nc1cccc(OCCCCCOc2ccc(Cc3ccccc3)cc2)c1,Ava5-EG(delta4AB)SEAP,MTS,>1 µM
CC1=CC2c3c(C)cc(-c4cc5ccc(O)cc5o4)cc3O[C@@]3(c4ccc(O)cc4O)Oc4cc(O)ccc4[C@H](C1)C23,HepG2.2.5 cells,MTT,8.04 µM
Cn1cc2c3ccccc3nc-2c2ccccc21,3T3,MTT,2.188 µM
O=c1ccn(-c2ccc(F)cc2)c2ccccc12,HPB-ALL,luminescence,36.7 µM
O=c1[nH]c(=O)n([C@@H]2C[C@@H](F)[C@H](CO)O2)cc1Cl,PBM,-,>100 µM
Cc1cn([C@@H]2O[C@H](COC(c3ccccc3)(c3ccccc3)c3ccccc3)C3OC32)c(=O)[nH]c1=O,HL-60,-,>1000 µM
CC1=C[C@H](O)[C@@H](/C=C(/C)C/C=C/C(C)(C)O)C1=O,HOG.R5,-,49.6 µM
O=C(O)CSc1nc(-c2cccs2)c2c(n1)-c1ccccc1CC2,HUh-7 and HepG2,-,516 µM
Cc1ccc(S(=O)(=O)n2c(-c3ccc(-n4cncn4)cc3)nc3c(F)cc(F)cc32)cc1,Vero-C-1008,neutral red / absorbance,>50 µg/mL
O=c1ccn(-c2ccc(F)cc2)c2cc(-c3ccncc3)c(F)cc12,HPB-ALL,luminescence,>500 µM
CCOC(=O)/C=C/[C@H](C[C@@H]1CCNC1=O)NC(=O)c1ccc2ccc(Br)cc2c1,H1-HELA,-,56.2 µM
Nc1nc2c(ncn2[C@@H]2C[C@@H](F)[C@H](CO)O2)c(=O)[nH]1,PBM,-,>100 µM
COc1cc(O)cc(C/C=C(\C)CCC=C(C)C)c1O,L6 rat skeletal myoblasts,resazurin,2.1 µM
Cc1cn2c(nc1=O)OC1[C@H]2O[C@H](COC(c2ccccc2)(c2ccccc2)c2ccccc2)[C@H]1O,HL-60,-,>1000 µM
CCOC(=O)/C=C/[C@H](C[C@@H]1CCNC1=O)NC(=O)Nc1cccc2ccccc12,H1-HELA,-,>10 µM
CCCCCCCCCCCCCCCCCCOCCOP(=O)(O)CO[C@@H](CO)Cn1cnc2c(N)ncnc21,Huh7.5.1,neutral red,>100 µM
Nc1ccn([C@@H]2C[C@@H](F)[C@H](CO)O2)c(=O)n1,PBM,-,>100 µM
COS(=O)(=O)[O-].Cn1c(-c2c[nH]c3ccccc23)c[n+](C)c1-c1cn(C)c2cc(Br)ccc12,P-388,-,0.34 µg/mL
COC(=O)C1=C2Nc3ccccc3[C@@]23CCN2C[C@]4(C[C@@H]5C[C@]67CCO[C@H]6CCC6NC[C@@]8(c9cccc(OC)c9N(C4)[C@@H]58)[C@@H]67)[C@@H]4OCCC4(C1)[C@H]23,HL-60,absorbance,>56.94 µM
C=CCC1=CCCc2cc(OC)c(OC)cc21,BJ,-,<7.5 µM
CCOC(=O)c1c(NC(CO)c2ccccc2)c2cccnc2n(O)c1=O,HeLa,-,<100 µM
O=C(O)P(=O)(O)O,MA-104,-,10–1000 µM
CC(=O)Nc1ccc(/C=N/n2cn[nH]c2=S)cc1,Fibroblast L929,MTT,>100 µg/mL
CC(C)N(Cc1cccc(OCCCCCC(=O)OC(=O)O)c1)C(=O)c1ccc(-c2ccc3[nH]ccc3c2)cc1,HEK 293,-,>20 µM
O=C(NCCSSCCNC(=O)/C(Cc1ccc(O)c(Br)c1)=N/O)/C(Cc1ccc(O)c(Br)c1)=N\O,Replicon cells,XTT,25.9 µM
COc1ccc(C[C@H](N)C(=O)N[C@H]2[C@@H](O)[C@H](n3cnc4c(N(C)C)ncnc43)O[C@@H]2CO)cc1,HEPG2 (HB-8065),WST,0.32 µg/mL
CCCNCc1ccc(OCC(=O)OCC)cc1,BJ,-,>20 µM
COc1cccc(Cn2c(-c3ccc(-n4cncn4)cc3)nc3c(F)cc(F)cc32)c1,Vero-C-1008,neutral red / absorbance,>50 µg/mL
Nc1ncnc2c1ncn2[C@@H]1O[C@H](CO)[C@@H](O)[C@@H]1O,HEP II,-,320 µg/mL
NC(=S)Nc1cccc(OCCCCCOc2cccc(C(=O)c3ccccc3)c2)c1,Ava5-EG(delta4AB)SEAP,MTS,>1 µM
CS(=O)(=O)c1cccc(-c2cc(=O)n(O)c3ncccc23)c1,HeLa,-,<100 µM
Clc1nccc2[nH]c(CC3CCCCC3)c(CN3CCOCC3)c12,HEK293T,MTT,21.2 µg/mL
CC(C)N(Cc1cccc(OCCCCCC(=O)OC(=O)O)c1)C(=O)c1ccc(-c2ccoc2)cc1,RAJI,-,>20 µM
Cn1cc2c3cc(Cl)ccc3nc-2c2ccccc21,3T3,MTT,2.104 µM
C=C(C)C(=O)CC/C(C)=C/[C@H]1C(=O)C(C)=C[C@@H]1O,HOG.R5,-,10.1–20.2 µM
Cc1cc(C2CC2)n2nc(S(=O)(=O)Nc3c(C)ccc(Cl)c3C)nc2n1,K562 (CRL-1573),WST,>128 µg/mL
COc1ccc(OCCCCCOc2cccc(NC(N)=S)c2)c2ccccc12,Ava5-EG(delta4AB)SEAP,MTS,>1 µM
CCCCCCCCCCCCCCCCOCCCOP(=O)(O)CO[C@H](CO)Cn1cnc2c(N)ncnc21,Huh7.5.1,neutral red,>100 µM
CCOC(=O)/C=C/[C@H](C[C@@H]1CCNC1=O)NC(=O)C1=Cc2cc(Br)ccc2OC1,H1-HELA,-,65 µM
C[C@H](NP(=O)(OC[C@H]1O[C@@H](n2cc(Br)c(=O)[nH]c2=O)C(F)(F)[C@@H]1O)Oc1ccccc1)C(=O)OCc1ccccc1,CrFK,MTS,>100 µM
Cn1cc(C(=O)NCc2ccc(Cl)cc2)c(=O)c2c1SC(CN1CCOCC1)C2,CBL,MTS,>23.1 µM
Nc1ncnc2c1ncn2C[C@@H](CO)OCP(=O)(O)O,Huh7.5.1,neutral red,>100 µM
CN1C(=O)c2c(c3cccnc3n(O)c2=O)NC1c1cccc(CN2CCOCC2)c1,HeLa,-,<100 µM
Cc1cn([C@@H]2O[C@H](COC(c3ccccc3)(c3ccccc3)c3ccccc3)[C@@H](N=[N+]=[N-])[C@@H]2O)c(=O)[nH]c1=O,HL-60,-,>1000 µM
Cc1cc(C2CC2)n2nc(S(=O)(=O)Nc3c(C)csc3S(C)=O)nc2n1,HEPG2 (HB-8065),WST,>128 µg/mL
CN(C)C(=S)Nc1cccc(OCCCCCOc2ccc(-c3ccccc3)cc2)c1,Ava5-EG(delta4AB)SEAP,MTS,>1 µM
CCOC(=O)/C=C/[C@H](CCC(N)=O)NC(=O)NC(CC(C)C)C(=O)OCC,H1-HELA,-,>100 µM
N#Cc1ccc2c(c1)CN(c1cc(=O)n(O)c3ncccc13)CC2,HeLa,-,<100 µM
CCOC(=O)/C=C/[C@H](C[C@@H]1CCNC1=O)NC(=O)COc1ccc(Cl)c(Cl)c1,H1-HELA,-,>10 µM
CC(NC(=O)c1c(O)c2cccnc2n(O)c1=O)c1ccccc1,HeLa,-,<100 µM
NC(=S)Nc1cccc(OCCCOc2ccccc2-c2ccccc2)c1,Ava5-EG(delta4AB)SEAP,MTS,>1 µM
COc1cc2c(cc1OC)C1(CC=CCC1)N(C(C)=O)CC2,HEK 293,-,<7.5 µM
CCOC(=O)c1c(O)c2cc(-c3cccc(CN4CCOCC4)c3)cnc2n(O)c1=O,HeLa,-,0.1 µM
CC(=O)N1c2ccccc2NC2=C(C(=O)CC(C)(C)C2)C1c1ccc(OCc2ccccc2)cc1,MT4-LTR-LUC,-,>32 µM
Cc1cccc(Cn2c(-c3ccc(-n4cncn4)cc3)nc3c(F)cc(F)cc32)c1,Vero-C-1008,neutral red / absorbance,>50 µg/mL
COC(=O)[C@H](C)NP(=O)(OC[C@H]1O[C@@H](n2cc(I)c(=O)[nH]c2=O)C(F)(F)[C@@H]1O)Oc1ccccc1,CrFK,MTS,>100 µM
COc1ccccc1NC(=O)c1c(O)c2cccnc2n(O)c1=O,HeLa,-,<100 µM
Cn1cc(C(=O)O)c(=O)c2cc(F)c(N3CC=C(c4ccccc4)CC3)c(C(F)(F)F)c21,MOLT-4,-,3.9 µM
O=c1cc(NCc2cccnc2)c2cccnc2n1O,HeLa,-,<100 µM
O=C(CSc1nc(-c2cccs2)c2c(n1)-c1ccccc1CC2)NN1C(=O)c2ccccc2C1=O,HUh-7 and HepG2,-,215 µM
CC(C)Oc1cccc(-c2ccc(C(=O)N(Cc3cccc(OCCCCCC(=O)OC(=O)O)c3)C(C)C)cc2)c1,RAJI,-,>20 µM
Nc1nc2c(ncn2COCCO)c(=O)[nH]1,H-1,-,1000 µM
N#CCn1c(-c2ccc(-n3cncn3)cc2)nc2c(F)cc(F)cc21,Vero-C-1008,neutral red / absorbance,>50 µg/mL